Results as given in patent US20120294879A1, “CONSENSUS SEQUENCE FOR INFLUENZA A VIRUS” (priority 2009, published 2012).

How the values were obtained:
[1] = target: HLA-DR3 (HLA-DRA*0101 and -DRB1*0301), as expressed in HLA-DR3 transgenic mice (human); assay: cell-based or functional assay
[2] = target: HLA-DR4 (HLA-DRA*0101 and -DRB1*0401), as expressed in HLA-DR4 transgenic mice (human); assay: cell-based or functional assay
[3] = tested on: splenocytes of HLA-DR3 (DRB1*0301) transgenic mice; format: cell-based; set-up: key: — represents no positive ELISpot response
[4] = tested on: splenocytes of HLA-B7 (B*0702) transgenic mice; format: cell-based; set-up: key: — represents no positive ELISpot response
[5] = tested on: splenocytes of HLA-DR4 (DRB1*0401) transgenic mice; format: cell-based; set-up: key: — represents no positive ELISpot response
[6] = tested on: splenocytes of HLA-DR2 (DRB1*1501) transgenic mice; format: cell-based; set-up: key: — represents no positive ELISpot response

Substance: PB1 548-564 peptide of influenza virus A/New York/348/2003 (H1N1)
- IFN-γ ELISpot at 10 µg/ml peptide, splenocytes of immunized HLA transgenic mice [1]: 230
- lowest concentration of peptide giving positive ELISpot response [1]: 0.1 µg/mL
- IFN-γ ELISpot at 10 µg/ml peptide, splenocytes of immunized HLA transgenic mice [2]: 97
- lowest concentration of peptide giving positive ELISpot response [2]: 0.1 µg/mL

Substance: TFEFTSFFYRYGFVANF
- DR3: average IFN-γ spots forming cells per million splenocytes [3]: —
- B7: average IFN-γ spots forming cells per million splenocytes [4]: —
- DR4: average IFN-γ spots forming cells per million splenocytes [5]: —
- DR2: average IFN-γ spots forming cells per million splenocytes [6]: —
